## Share of PSTVd loop 15 variants by leaf site

From the data files of Wu et al. 2024, doi:10.1371/journal.ppat.1012142.

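Three N. benthamiana plants were inoculated with the whole mutant pool. Samples came from the inoculated region at 5 days, the leaf margin at 10 and upper systemic leaves at 12.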

PSTVd intermediate strain, loop 15: wild type GGAAACCGCUACUAC, pool pattern GGAAACCGNNNNNNC; upper and lower strand joined, each 5' to 3', the first 7 letters being the upper strand, closing pairs included.

Values are reads per thousand in the sample; higher means more abundant, 0 means not found.
Each site shows the three plants.
"Pool" is the share in the plasmid pool used as inoculum, on the same scale.
The inoculated region was read from the minus strand, the other sites from the plus strand.
IR is the inoculated region, LM the leaf margin, Sys the systemic leaves.

sequence | pool | IR | LM | Sys
GGAAACCGGACUUGC | 0.208 | 0.0491 / 0.0803 / 0.0381 | 0.0162 / 0 / 0.0200 | 0 / 0 / 0
GGAAACCGGACUUUC | 0.160 | 0.0983 / 0.0482 / 0.0762 | 0.0323 / 0 / 0 | 0 / 0 / 0
GGAAACCGGAGAAAC | 0.160 | 0.0655 / 0.112 / 0.0952 | 0 / 0.0223 / 0.0601 | 0 / 0 / 0
GGAAACCGGAGAACC | 0.208 | 0.147 / 0.0964 / 0.0571 | 0.0162 / 0.0223 / 0 | 0 / 0 / 0
GGAAACCGGAGAAGC | 0.272 | 0.0655 / 0.0482 / 0.114 | 0 / 0 / 0.0200 | 0 / 0 / 0
GGAAACCGGAGAAUC | 0.192 | 0.0819 / 0.112 / 0.0571 | 0 / 0 / 0 | 0 / 0 / 0
GGAAACCGGAGACAC | 0.288 | 0.0983 / 0.0964 / 0.133 | 0 / 0 / 0.0200 | 0 / 0 / 0
GGAAACCGGAGACCC | 0.208 | 0.0819 / 0.112 / 0.114 | 0 / 0.0223 / 0 | 0 / 0 / 0
GGAAACCGGAGACGC | 0.288 | 0.131 / 0.112 / 0.0762 | 0.0323 / 0 / 0.0200 | 0 / 0 / 0
GGAAACCGGAGACUC | 0.288 | 0.0655 / 0.112 / 0.114 | 0.0162 / 0 / 0 | 0 / 0 / 0
GGAAACCGGAGAGAC | 0.112 | 0.0819 / 0.0803 / 0.0952 | 0.0162 / 0.0445 / 0.0401 | 0 / 0 / 0.0228
GGAAACCGGAGAGCC | 0.256 | 0.0983 / 0.0803 / 0.114 | 0 / 0 / 0 | 0 / 0 / 0
GGAAACCGGAGAGGC | 0.240 | 0.0328 / 0.0482 / 0.114 | 0 / 0 / 0.0200 | 0 / 0 / 0
GGAAACCGGAGAGUC | 0.0800 | 0.0655 / 0.112 / 0.114 | 0.0323 / 0 / 0 | 0 / 0 / 0
GGAAACCGGAGAUAC | 0.240 | 0.0983 / 0.0803 / 0.0381 | 0 / 0.0445 / 0.0200 | 0 / 0 / 0
GGAAACCGGAGAUCC | 0.144 | 0.180 / 0.161 / 0.171 | 0.0485 / 0 / 0.0200 | 0 / 0 / 0
GGAAACCGGAGAUGC | 0.256 | 0.0655 / 0.0643 / 0.0952 | 0 / 0 / 0 | 0 / 0 / 0.0228
GGAAACCGGAGAUUC | 0.160 | 0.0983 / 0.0964 / 0.0571 | 0 / 0.0668 / 0 | 0 / 0 / 0
GGAAACCGGAGCAAC | 0.160 | 0.131 / 0.0803 / 0.0952 | 0.0162 / 0 / 0 | 0 / 0 / 0
GGAAACCGGAGCACC | 0.112 | 0.131 / 0.161 / 0.0571 | 0.0162 / 0 / 0 | 0 / 0 / 0
GGAAACCGGAGCAGC | 0.240 | 0.147 / 0.0964 / 0.0952 | 0 / 0 / 0.0200 | 0 / 0 / 0
GGAAACCGGAGCAUC | 0.192 | 0.131 / 0.241 / 0.0762 | 0 / 0 / 0 | 0 / 0 / 0
GGAAACCGGAGCCAC | 0.336 | 0.0328 / 0.0482 / 0.114 | 0 / 0 / 0.0200 | 0 / 0 / 0
GGAAACCGGAGCCCC | 0.256 | 0.131 / 0.145 / 0.0571 | 0 / 0.0223 / 0.0200 | 0.0161 / 0 / 0
GGAAACCGGAGCCGC | 0.224 | 0.0655 / 0.0964 / 0.133 | 0 / 0 / 0.0200 | 0 / 0 / 0
GGAAACCGGAGCCUC | 0.256 | 0.0819 / 0.112 / 0.0952 | 0 / 0.0223 / 0 | 0.0161 / 0 / 0
GGAAACCGGAGCGAC | 0.160 | 0.295 / 0.129 / 0.152 | 0 / 0.0223 / 0.0200 | 0 / 0 / 0
GGAAACCGGAGCGCC | 0.160 | 0.0983 / 0.112 / 0.0762 | 0 / 0 / 0.0200 | 0 / 0 / 0
GGAAACCGGAGCGGC | 0.304 | 0.0983 / 0.0482 / 0.0952 | 0 / 0 / 0.0200 | 0 / 0 / 0
GGAAACCGGAGCGUC | 0.256 | 0.0491 / 0.129 / 0.0762 | 0 / 0 / 0 | 0 / 0 / 0
GGAAACCGGAGCUAC | 0.272 | 0.0819 / 0.0643 / 0.0762 | 0 / 0 / 0.0200 | 0 / 0 / 0
GGAAACCGGAGCUCC | 0.304 | 0.0328 / 0.0964 / 0.0762 | 0 / 0 / 0 | 0 / 0 / 0
GGAAACCGGAGCUGC | 0.256 | 0.0819 / 0.145 / 0.0952 | 0 / 0 / 0 | 0 / 0 / 0
GGAAACCGGAGCUUC | 0.256 | 0.0983 / 0.161 / 0.114 | 0 / 0 / 0 | 0 / 0 / 0
GGAAACCGGAGGAAC | 0.272 | 0.0819 / 0.161 / 0.133 | 0.0162 / 0 / 0 | 0.0161 / 0 / 0
GGAAACCGGAGGACC | 0.224 | 0.147 / 0.112 / 0.114 | 0 / 0 / 0.0200 | 0 / 0 / 0
GGAAACCGGAGGAGC | 0.192 | 0.0491 / 0.112 / 0.0952 | 0 / 0.0223 / 0.0200 | 0 / 0 / 0
GGAAACCGGAGGAUC | 0.176 | 0.115 / 0.161 / 0.0762 | 0.0323 / 0.0223 / 0 | 0 / 0 / 0
GGAAACCGGAGGCAC | 0.144 | 0.0328 / 0.0643 / 0.190 | 0.0162 / 0 / 0.0200 | 0.0161 / 0 / 0
GGAAACCGGAGGCCC | 0.208 | 0.115 / 0.0803 / 0.171 | 0.0162 / 0 / 0.0200 | 0 / 0 / 0
GGAAACCGGAGGCGC | 0.272 | 0.0328 / 0.112 / 0.0571 | 0.0162 / 0 / 0.0401 | 0 / 0 / 0
GGAAACCGGAGGCUC | 0.304 | 0.115 / 0.112 / 0.0952 | 0 / 0 / 0.0200 | 0 / 0 / 0

Samples held 43,870 to 66,106 reads, so the smallest values rest on one or two reads.
The authors trace changes outside the varied positions to PCR and sequencing errors or to mutation in the plant; presence does not show that a variant is infectious alone.
Wild type was 33.9 per thousand in the pool and the most common sequence in every sample (inoculated region 202, 200, 159; leaf margin 724, 746, 710; systemic leaves 856, 883, 880).